SMILES strings stand for the structures.

Data on one compound can be found in patent US10646469B2, “Substituted indole derivatives as dengue viral replication inhibitors” (Janssen Pharmaceuticals, Inc., priority 2016, dated 2020).

Common to all, as to assay type: cell-based, Dengue virus
Data set [1] deals with DENV-2 16681 strain. Put plainly: DENV-2 antiviral assay (eGFP-labeled virus in Vero cells). The settings on record: SI=CC50/EC50, DENV-2 antiviral assay. In a few lines:
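Vero cells (2500/well) pre-plated with compound (9-step 5-fold series), infected next day with eGFP-labeled DENV-2 16681 at MOI 0.5 in MEM with 2% FCS; 3 days at 37° C. eGFP fluorescence read at 488 nm; inhibition versus virus and cell controls, EC50 by linear interpolation.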

Data set [2] concerns DENV-3 strain H87. Put plainly: Tetravalent RT-qPCR assay, serotype 3. The settings on record: RT-qPCR serotype 3 H87, Protocol A. How it is done:
(§1) The antiviral activity of the compounds of the invention was tested against DENV-1 strain TC974 #666 (NCPV), DENV-2 strain 16681, DENV-3 strain H87 (NCPV) and DENV-4 strain H241 (NCPV) in a RT-qPCR assay. Therefore, Vero cells were infected with either DENV-1, or -2, or -3, or -4 in the presence or absence of test compounds. At day 3 post-infection, the cells were lysed and cell lysates were used to prepare cDNA of both a viral target (the 3′UTR of DENV; Table 2) and cellular reference gene (β-actin, Table 2). Subsequently, a duplex real time PCR was performed on a Lightcycler480 instrument. The generated Cp value is inversely proportional to the amount of RNA expression of these targets. Inhibition of DENV replication by a test compound results in a shift of Cp's for the 3′UTR gene. On the other hand, if a test compound is toxic to the cells, a similar effect on β-actin expression will be observed. The comparative ΔΔCp method is used to calculate EC50, which is based on the relative gene expression of the target gene (3′UTR) normalized with the cellular housekeeping gene (β-actin). In addition, CC50 values are determined based on the Cp values acquired for the housekeeping gene β-actin.
(§2) The culture medium consisted of minimal essential medium supplemented with 2% of heat-inactivated fetal calf serum, 0.04% gentamycin (50 mg/mL) and 2 mM of L-glutamine. Vero cells, obtained from ECACC, were suspended in culture medium and 75 μL/well was added in 96-well plates (10000 cells/well), which already contain the antiviral compounds. […] In addition, each plate contains wells which are assigned as virus controls (containing cells and virus in the absence of compound) and cell controls (containing cells in the absence of virus and compound). Once the cells were added in the plates, the plates were incubated in a fully humidified incubator (37° C., 5% CO2) until the next day. Dengue viruses serotype-1, 2, 3 and 4 were diluted in order to obtain a Cp of ˜22-24 in the assay. Therefore, 25 μL of virus suspension was added to all the wells containing test compound and to the wells assigned as virus control. In parallel, 25 μL of culture medium was added to the cell controls. Next, the plates were incubated for 3 days in a fully humidified incubator (37° C., 5% CO2). After 3 days, the supernatant was removed from the wells and the cells were washed twice with ice-cold PBS (˜100 μL). The cell pellets within the 96-well plates were stored at −80° C. for at least 1 day. Next, RNA was extracted using the Cells-to-CT™ lysis kit, according to the manufacturer's guideline (Life Technologies). The cell lysates can be stored at −80° C. or immediately used in the reverse transcription step.
(§3) In preparation of the reverse transcription step, mix A (table 3A) was prepared and 7.57 μL/well was dispensed in a 96-well plate. After addition of 5 μL of the cell lysates, a five minute denaturation step at 75° C. was performed (table 3B). Afterwards, 7.43 μL of mix B was added (table 3C) and the reverse transcription step was initiated (table 3D) to generate cDNA.
(§4) Finally, a RT-qPCR mix was prepared, mix C (table 4A), and 22.02 μL/well was dispensed in 96-well LightCycler qPCR plates to which 3 μL of cDNA was added and the qPCR was performed according to the conditions in table 4B on a LightCycler 480.
(§5) Using the LightCycler software and an in-house LIMS system, dose response curves for each compound were calculated and the half maximal effective concentration (EC50) and the half maximal cytotoxic concentration (CC50) were determined (Tables 5-8).
For orientation: Quantitative PCR measures a nucleic acid by following its amplification.

Data set [3] deals with DENV-1 strain TC974 #666. The data set can be described thus: Tetravalent RT-qPCR assay, serotype 1. The settings on record: RT-qPCR serotype 1 TC974#666, Protocol A. How it is done:
as §1, §2, §3, §4, §5

For data set [4], the system named is DENV-2 strain 16681. Put plainly: Tetravalent RT-qPCR assay, serotype 2. The settings on record: RT-qPCR serotype 2 16681, Protocol A. How it is done:
as §1, §2, §3, §4, §5

The test system of data set [5] is DENV-4 strain H241. The data set can be described thus: Tetravalent RT-qPCR assay, serotype 4. The settings on record: RT-qPCR serotype 4 H241, Protocol A; ratio CC50 / EC50. How it is done: as §1, §2, §3, §4, §5

As for `COc1cc(NC(C(=O)c2c[nH]c3cc(OC)c(OC(F)(F)F)cc23)c2ccc(Cl)cc2OC)cc(OCCO)c1` (single isomer, unassigned) [Compound 14A, 2-(4-chloro-2-methoxyphenyl)-2-((3-(2-hydroxyethoxy)-5-methoxyphenyl)amino)-1-(6-methoxy-5-(trifluoromethoxy)-1H-indol-3-yl)ethanone], the SI is on record as 18500 in data set [1]; 534 in data set [2]; 3680 in data set [3]; 25800 in data set [4]; 75 in data set [5].
